# According to PubChem BioAssay AID2152 (The Scripps Research Institute Molecular Screening Center, 2009):
# The list shows a part of the results, in another mix than the full data. Calls of active or inactive are those of the source.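 Rule for the calls: active = mean inhibition over three replicate wells above the hit threshold derived in the earlier primary screen (cut at about 45% in these data); inactive = the rest.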
# Test system: Hepatitis C virus core protein (core106 dimerization)
# Assay: inhibitors of HCV core protein dimerization, confirmation, biochemical, TR-FRET, triplicate (AID 2152);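 note: 0% = DMSO wells and 100% = unlabelled core106 competitor control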
# Settings: TR-FRET GST-/Flag-core106 dimerization, HTRF; at 5 µM; active compounds read high
# Outline: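 Test system: GST- and Flag-tagged HCV core106 peptides, dimerization via antibody TR-FRET / Amount: 17 nM Flag- plus 13.5 nM GST-core106 / Probe or stimulus: Eu(K)-anti-GST plus XL665-anti-FLAG antibodies / Compound dosing: one 5 µM dose, 0.5% DMSO / Times: 4 h incubation, 22.5 °C / Technique: TR-FRET, 340 nm excitation, 671/617 nm emission / Evaluation: percent inhibition from emission ratio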
row,SMILES,inhibition
1,C[N+]1=C2C=CC=CC=C2SC12C([N+](=O)[O-])=CC([N+](=O)[O-])=C[C-]2[N+](=O)[O-] (configuration not stated),inactive: -19.6%
2,O=[N+]([O-])c1cc([N+](=O)[O-])c(CCN2CCOCC2)c([N+](=O)[O-])c1,inactive: 7.9%
